Read-outs that look alike come from different tables or passages of the source.
Legend:
[1] = monkeys; single oral administration, MCT preparation
[2] = monkeys; single oral sesame oil preparation 0.168 mg/kg
[3] = Dissolution rate of PAO in vegetable oil (supersaturated solutions, HPLC); settings: in the three vegetable oils (tea, sesame, soybean oil)
[4] = In vivo kinetic study of oral and intravenous PAO in beagles (whole blood); settings: single oral sesame oil preparation

O=[As]c1ccccc1 (stereo not shown)
time at which blood concentration reached the maximum [1]: ≤ 4 h
time at which blood concentration reached the maximum [2]: ≤ 4 h
time at which PAO substantially reached dissolution equilibrium [3]: 1 h
time at which blood concentration reached the maximum [4]: ≤ 4 h

Reference: patent US20230115711A1, “MICROMOLECULE PI4KIIIalpha INHIBITOR COMPOSITION, PREPARATION METHOD THEREFOR AND USE THEREOF” (published 2023)
